## Primary screen of a compound library

From ChEMBL document CHEMBL3988442, “University of Dundee, Small-Polar-MMV Screening Library” (2021).

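Phenotypic screen: M. tuberculosis growth, glucose 7H9 medium, 3 days; the read-out is not stated. Compounds at 50 µM. The record gives no direction; compounds that gave an IC50 in retests scored well above the rest, so higher reads as more growth inhibition. Size under these conditions: about 69,000 compounds, about 760 of them at 50% or above in at least one test.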

The filed quantity is “Percent Effect” (%).
How 0% and 100% were set is not recorded. Most values in the screen are low, and negative values occur.
This is part of a subset picked to be rich in strong results.
Two or more numbers in one place are separate tests of the same structure; such repeats can differ widely.

| # | compound | Percent Effect |
|---|---|---|
| 1 | `CC(CCNC(=O)N1CCC1)N(C)C(=O)OC(C)(C)C` (stereo not given) | -7.332 & -3.823 |
| 2 | `CC(CNC(=O)c1cnccn1)Oc1cccc(Br)c1` (stereo not given) | 67 |
| 3 | `CC(Cn1cc(Br)cn1)C(=O)Nc1ccc(Br)cn1` (stereo not given) | 55.2 |
| 4 | `O=S(=O)(Cc1cccc(F)c1)NCC(O)Cc1ccccc1` (stereo not given) | -5.417 |
| 5 | `CC(CNC(=O)c1c[nH]nn1)Oc1cccc(Br)c1` (stereo not given) | -0.994 |
| 6 | `O=C(C1CC1)N1CCC2(CCN(Cc3cccc(F)c3)CC2)CC1.O=C(O)C(F)(F)F` | -6.424 & -23.65 |
| 7 | `CCN(Cc1ccc(Cl)c(Cl)c1)C(=O)CCn1cncn1` | 0.8887 & -1.542 |
| 8 | `CCOCCCn1c(NC(=O)c2ccc(C)nc2)nc2ccccc21` | 3.192 |
| 9 | `Fc1cccc(Nc2nc(N3CCCC3)nc3c2CNCC3)c1` | 83.85 |
| 10 | `Cc1ccc(CN(CCCn2ccnc2)Cc2cnc(N(C)C)nc2)s1.O=C(O)CC(O)(CC(=O)O)C(=O)O` | 17.58 |
| 11 | `CCc1c(C)nc(-n2nc(-c3cccs3)cc2N)[nH]c1=O` | 62.91 |
| 12 | `O=C(O)C(F)(F)F.O=C(O)C(F)(F)F.c1cncc(-c2ccc3c(c2)CCC32CCN(Cc3ccco3)CC2)c1` | 63.92 & 66.71 |
| 13 | `CN(C)c1cc(C2CCCN(C(=O)c3noc4c3CCCC4)C2)ccn1` (stereo not given) | 79.79 |
| 14 | `CCN(CC)C(=O)C1CCN(c2ccc(Cl)cc2C#N)CC1` | 3.006 & -28.04 |
| 15 | `O=C(NCCNc1ccc(C(F)(F)F)cn1)c1ccoc1` | 31.87 |
| 16 | `COCCC1(CNC(=O)Nc2ccc(-n3ccnn3)cc2)CCC1` | 50.67 |
| 17 | `CC(SCCC(=O)NC(N)=O)c1ccc(F)cc1F` (stereo not given) | -5.16 & 10.03 |
| 18 | `COc1cc(Oc2ccc(C(N)=O)cn2)ccc1CN1CCCC1` | -17.84 |
| 19 | `CC(=O)N1CCC(Nc2ccc(Br)cc2C#N)C1` (stereo not given) | 2.55 & 2.654 |
| 20 | `NS(=O)(=O)CCN1CCN(c2ccccc2O)CC1` | 0.07625 |
| 21 | `NC(CC1CCCC1)c1ccc(Oc2ccccc2)cc1` (stereo not given) | 111.5 |
| 22 | `N#CC1(NC(=O)COc2cc(Cl)cc(Cl)c2)CCOCC1` | -0.4305 & 22.21 |
| 23 | `CCc1nc(CN(C)Cc2ncc(-c3cccs3)o2)cs1` | 29.08 & 54.63 |
| 24 | `COc1cccc(COCC(=O)N2CCCC(n3cncn3)C2)c1` (stereo not given) | -7.09 |
| 25 | `CCN(C)C(=O)c1cnc(-c2noc3cc(N4CCCCC4)ccc23)s1` | -33.38 & -10.21 |
| 26 | `Cc1ccc(C)c(NC(=O)c2coc(C)n2)c1` | 20.1 |
| 27 | `Cc1cc(C(=O)NCC(Cc2cccc(F)c2)N2CCCCC2=O)no1` (stereo not given) | -2.585 |
| 28 | `Cc1cc(C)n(CCCn2cncc2-c2ccc3c(c2)CC(C)N3C)n1.Cl` (stereo not given) | 35.05 |
| 29 | `CNC(=O)CCS(=O)(=O)Cc1cc(Cl)c2c(c1)OCCO2` | -13.27 |
| 30 | `Cc1nn(-c2ccccc2)nc1C(=O)NCC(c1ccsc1)N(C)C` (stereo not given) | -5.448 |
| 31 | `CCc1ccccc1OC1CN(C(=O)c2sccc2N)C1` | 13.57 |
| 32 | `Cc1cc(NCCO)nc(N2CCC(Cc3ccccc3)CC2)c1C#N.O=C(O)C(=O)O` | 7.291 |
| 33 | `Cc1nc(C2CCCN(C(=O)c3ccc(N4CCCC4)nn3)C2)no1` (stereo not given) | 58.34 |
| 34 | `CN1CCN(Cc2cccnc2)C(=O)C12CCN(Cc1ccco1)CC2.O=C(O)C(F)(F)F.O=C(O)C(F)(F)F.O=C(O)C(F)(F)F` | 16.99 |
| 35 | `CC1=C(C(=O)N2CCOC(Cc3cccc(C(F)(F)F)c3)C2)OCCO1` (stereo not given) | 27.05 & 1.693 |
| 36 | `Cc1cc2n(n1)CC(CNC1CCN(C3CC3)CC1)CN2` (stereo not given) | 28.64 & 65.82 |
| 37 | `CCC(CO)NCc1ccc(-c2ccccc2)o1.Cl` (stereo not given) | 5.24 & -27.75 |
| 38 | `Cc1cc(Cc2cccc(C(F)(F)F)c2)cc(C2CCCNC2)n1` (stereo not given) | 69.04 |
| 39 | `Cc1nc2c(c(NCC(O)c3ccccc3Cl)n1)CCNCC2` (stereo not given) | -5.893 |
| 40 | `CCOc1ccccc1CN1CCc2nc3ccsc3c(=O)n2CC1.Cl` | 27.94 |
| 41 | `CC(C)(C(=O)NCC(=O)N1CCCC1)c1ccccc1F` | -11.31 |
| 42 | `COC(C)c1noc(CN2CCCNCC2)n1` (stereo not given) | 13.93 |
| 43 | `CS(=O)(=O)N1CCCC1c1cccc(Cc2ccccc2F)n1` (stereo not given) | 7.454 |
| 44 | `NC(=O)C1CCN(C(=O)NCc2ccc3c(c2)OCCO3)CC1` | -0.6 & -2.252 |
| 45 | `COc1ccccc1N1CCN(Cc2nc(C)c(C)o2)CC1` | 15.72 |
| 46 | `Cc1csc(NC(=O)C(C)Oc2ccc3c(c2)OCO3)n1` (stereo not given) | 57.37 |
| 47 | `COc1ccc(CCCC(=O)N2CCCC(n3cccn3)C2)cc1` (stereo not given) | -20.74 |
| 48 | `CC1c2cccn2CCN1C(=O)CCc1nc(-c2ccccc2)no1` (stereo not given) | -8.247 & -4.303 |
| 49 | `c1ccc(C[C@H]2CN(Cc3nccs3)CC[C@H]2OCC2CC2)cc1` | 26.99 |
| 50 | `Cc1ccc(CN2CC(C(=O)NC(C)C)C3(CCOCC3)C2)s1.O=C(O)C(F)(F)F` (stereo not given) | 3.553 & -0.8097 |
| 51 | `Cc1ccc(-n2ncc3c2CCCC3N)cc1C` (stereo not given) | 22.83 |
| 52 | `CC(C#N)CNS(=O)(=O)c1ccc(F)c(Br)c1` (stereo not given) | -7.497 |
| 53 | `COCC(=O)NCc1cnc(C)nc1-c1cn(C)c2ccc(OC)cc12` | 18.19 |
| 54 | `Cc1ccc(CN[C@@H]2COC[C@H]2Cc2cc(C)no2)cc1.O=C(O)CC(O)(CC(=O)O)C(=O)O` | -6.832 |
| 55 | `CC(Cn1cccn1)NCc1csc(-c2ccccc2F)n1` (stereo not given) | 83.02 |
| 56 | `COc1ccc(CCC2CCCCN2)cc1.Cl` (stereo not given) | -23.28 |
| 57 | `COc1ccc(CC(=O)Nc2c(C)nc(N3CCCC3)nc2C)cc1` | 52.97 & 36.18 |
| 58 | `CCC1=NC(SCC(=O)c2ccccc2)c2cc(CC)sc2N1` (stereo not given) | 58.68 |
| 59 | `Fc1ccc(COCC2CCN(Cc3ccccn3)CC2)cc1.O=C(O)C(=O)O` | 21.98 |
| 60 | `CCN(CC)S(=O)(=O)N1CCc2nc(C3CCNCC3)ncc2C1.Cl` | 36.36 |
| 61 | `c1ccc(Cc2noc(CN3CCCCC3Cn3cncn3)n2)cc1` (stereo not given) | -38.87 |
| 62 | `C=C(C)CNCC1(O)CCCN(Cc2ccc(F)c(F)c2)C1=O` (stereo not given) | 14.66 |
| 63 | `Cc1cnn(CCNCc2nccn2Cc2ccccc2)c1` | 41.29 |
| 64 | `COc1cccc(OC)c1-c1ccnc2cc(CC(=O)NC(C)C)nn12` | 50.41 |
| 65 | `OCCN(Cc1nc(-c2ccc3c(c2)OCO3)no1)Cc1cccs1` | 21.07 |
| 66 | `Cc1nsc(C(=O)NCCCc2ccccc2)n1` | 59.76 |
| 67 | `COc1ccc(-c2cn(CCSc3ncn[nH]3)nn2)cn1` | 11.13 |
| 68 | `CC(C)c1cc(C(=O)NC2CCN(CC(N)=O)CC2)nn1C(C)(C)C` | 6.784 |
| 69 | `COCC(=O)N1CCCN(Cc2cc(C(C)C)no2)CC1` | 102.1 & -8.837 |
| 70 | `c1cncc(O[C@H]2COCCN(Cc3c[nH]c4ccccc34)C2)c1` | 1.197 & -11.46 |
| 71 | `Cc1cccnc1CN(C)C(C(=O)O)c1ccc(-n2cccn2)cc1` (stereo not given) | 82.27 |
| 72 | `Br.Cc1ccc(OCCSC2=NCCN2)cc1` | 54.19 |
| 73 | `CCn1cc(CNc2ccc(N(C)CCOC)cn2)cn1` | -68.44 |
| 74 | `Cc1ccccc1N1CCN(c2cc(N(C)C)ncn2)C(C)C1` (stereo not given) | 54.23 & 37.99 |
| 75 | `Cc1cnn(CC2CN(c3cnc4ccccc4n3)CCO2)c1` (stereo not given) | 64.96 |
| 76 | `Cc1nnc2n1CCN(C(C)c1nnc(-c3cccs3)o1)C2` (stereo not given) | 9.521 |
| 77 | `CC(C)N1CCCC(CN(C)c2ccc(Cn3ccnc3)cn2)C1` (stereo not given) | -2.179 & 3.577 |
| 78 | `CN1CCN(C(=O)C2CCN(c3cccnn3)CC2)CC1` | -30.3 |
| 79 | `CCCc1nn(Cc2csc(C(C)C)n2)c(=O)o1` | 53.02 |
| 80 | `O=C(CNc1cccc(S(=O)(=O)C(F)F)c1)Nc1ccccc1` | -6.102 |

Some entries from above, unchanged:

compound	Percent Effect
COc1cccc(OC)c1-c1ccnc2cc(CC(=O)NC(C)C)nn12	50.41
Cc1nsc(C(=O)NCCCc2ccccc2)n1	59.76
c1ccc(C[C@H]2CN(Cc3nccs3)CC[C@H]2OCC2CC2)cc1	26.99
CCC1=NC(SCC(=O)c2ccccc2)c2cc(CC)sc2N1 (stereo not given)	58.68
CCN(C)C(=O)c1cnc(-c2noc3cc(N4CCCCC4)ccc23)s1	-33.38 & -10.21
Cc1cc(NCCO)nc(N2CCC(Cc3ccccc3)CC2)c1C#N.O=C(O)C(=O)O	7.291
CCc1c(C)nc(-n2nc(-c3cccs3)cc2N)[nH]c1=O	62.91
Fc1cccc(Nc2nc(N3CCCC3)nc3c2CNCC3)c1	83.85
NS(=O)(=O)CCN1CCN(c2ccccc2O)CC1	0.07625